Construct, isoform or probe ends are uncertain for at least one entry. Results from cells or extracts need not show a direct contact.

Chains of the proteins cited; added tags and fusions are not shown. Lines headed by an entry give the natural chain unless they say otherwise; changes in a name come on top.
UniProt P26599: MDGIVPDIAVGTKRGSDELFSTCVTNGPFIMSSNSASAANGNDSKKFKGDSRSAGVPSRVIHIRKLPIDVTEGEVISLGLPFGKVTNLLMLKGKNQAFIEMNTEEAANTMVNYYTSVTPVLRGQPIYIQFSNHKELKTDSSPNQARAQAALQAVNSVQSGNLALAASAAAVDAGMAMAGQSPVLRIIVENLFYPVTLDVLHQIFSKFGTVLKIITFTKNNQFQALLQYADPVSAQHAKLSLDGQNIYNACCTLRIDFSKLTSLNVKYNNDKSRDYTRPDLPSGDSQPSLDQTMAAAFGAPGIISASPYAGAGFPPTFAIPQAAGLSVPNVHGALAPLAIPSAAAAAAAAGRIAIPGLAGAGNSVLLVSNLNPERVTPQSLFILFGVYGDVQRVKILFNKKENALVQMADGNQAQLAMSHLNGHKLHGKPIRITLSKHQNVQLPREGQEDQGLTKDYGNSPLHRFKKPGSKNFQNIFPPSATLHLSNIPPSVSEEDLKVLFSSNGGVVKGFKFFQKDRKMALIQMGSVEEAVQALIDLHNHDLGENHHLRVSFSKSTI

For series [1], the target named is Polypyrimidine tract-binding protein (PTB) (Homo sapiens) (UniProt P26599). The series can be described thus: binding assay. As to conditions: UV crosslinking then immunoprecipitation with anti-PTB; single 58 kDa crosslinked protein; protein in an extract; label: [32P]UTP internal.
The target in series [2] is 40S ribosomal protein S5 (rpS5, p25) (Homo sapiens) (UniProt P46782). In words: binding assay. As to conditions: UV crosslinking then immunoprecipitation with anti-rpS5 under denaturing conditions; p25 in 40S-containing macromolecular complex; protein in an extract; label: [32P]UTP internal.

“GCCAGCCCCCUGAUGGGGGCGACACUCCACCAUGAAUCACUCCCCUGUGAGGAACUACUGUCUUCACGCAGAAAGCGUCUAGCCAUGGCGUUAGUAUGAGUGUCGUGCAGCCUCCAGGACCCCCCCUCCCGGGAGAGCCAUAGUGGUCUGCGGAACCGGUGAGUACACCGGAAUUGCCAGGACGACCGGGUCCUUUCUUGGAUAAACCCGCUCAAUGCCUGGAGAUUUGGGCGUGCCCCCGCAAGACUGCUAGCCGAGUAGUGUUGGGUCGCGAAAGGCCUUGUGGUACUGCCUGAUAGGGUGCUUGCGAGUGCCCCGGGAGGUCUCGUAGACCGUGCACCAUGAGC [HCV 5'NCR IRES RNA (nt 1-347)]”: the binding result in series [1] and in series [2] was “binds” in each case.

These data come from patent US20030124550.
